Results of unrelated studies side by side (data: NIAID ChemDB).

All rows: cytotoxicity tests; endpoint: CC50

CCn: concentration that lowers growth or viability of the cells by n%. Neighbouring rows are from separate reports. a–b is a range or a potency band. An empty or dashed field is not shown.

CN1CCc2cc3c(cc2C(=O)Cc2ccc4c(c2C1)OCO4)OCO3 ; cell line: Vero cells ; value: >3.5 µg/mL
O=C(/C=C/C=C/c1ccc([N+](=O)[O-])cc1)[Se]c1ccccc1 ; read by: WST ; cell line: Li-7 ; value: >100 µM
CN1CCc2cc3c(cc2[C@@H]1[C@@H]1OC(=O)c2c1ccc1c2OCO1)OCO3 ; cell line: Vero cells ; value: >20 µg/mL
COc1nc(OC(F)(F)F)c(NC(=O)C2CCC3C4CN(C(=O)OC(C)(C)C)C5=CC(=O)CC[C@]5(C)C4CC[C@]23C)cc1Br ; read by: ATP / luminescence ; cell line: HK-2 ; value: >30 µM
Nc1nc(=O)n(CC(CO)OCP(=O)(O)O)cc1-c1ccccc1 ; cell line: HB611 ; value: >200 µM
Nc1nc2c(ncn2[C@H]2C[C@@]23C[C@@H]3CO)c(=O)[nH]1 ; cell line: BSC-1 ; value: >100 µM
Cc1ccc(/C=C/C=C/C(=O)[Se]c2ccccc2)cc1 ; read by: WST ; cell line: HLE ; value: >100 µM
Nc1ccn(C[C@H]2COP(=O)(O)CO2)c(=O)n1 ; cell line: SupT1 ; value: 90 µg/mL
Nc1nc2c(ncn2[C@H]2C[C@@]23C[C@H]3CO)c(=O)[nH]1 ; cell line: BSC-1 ; value: >100 µM
CN(C)[C@H]1C[C@@]23CC[C@@]4(O2)C(=CC[C@]2(C)C(C(=O)Nc5cccnc5)=CC[C@H]24)C=C3[C@@H](O)[C@@H]1O ; read by: ATP ; cell line: HUVEC ; value: >1 µM
CCCCCCCCCCCCCCCCOP(=O)([O-])OCC[N+](C)(C)Cc1ccccc1 ; read by: MTT ; cell line: MCF ; value: 76 µM
Nc1nc(NC2CC2)c2ncn([C@H]3C=C[C@@H](CO)C3)c2n1 ; read by: WST ; cell line: Li-7 ; value: >100 µM
Nc1ccnc2c1ncn2CCOCP(=O)(O)O ; cell line: HB611 ; value: 261 µM
COC(=O)[C@H](C)NP(=O)(OC[C@@H]1C[C@]12C[C@@H]2n1cnc2c(N)ncnc21)Oc1ccccc1 ; cell line: BSC-1 ; value: 70 µM
Nc1nccc2c1ncn2CCOCCP(=O)(O)O ; cell line: HB611 ; value: 400 µM
COc1ccc(NC(=O)c2ccc(-c3ccc(-c4noc(C)n4)cc3C)cc2)cc1N1CCN(C)CC1 ; read by: luminescence ; cell line: n4mBid ; value: 7 µM
Nc1nc2c(ncn2[C@H]2C[C@]23C[C@@H]3CO)c(=O)[nH]1 ; cell line: BSC-1 ; value: >100 µM
C(=C\c1ccccc1)/CN1CCN(C(c2ccccc2)c2ccccc2)CC1 ; read by: luminescence ; cell line: n4mBid ; value: >30 µM
CC(C)(C)CC(C)(C)c1ccc(OCCOP(=O)([O-])OCC[N+](C)(C)Cc2ccccc2)cc1 ; read by: MTT ; cell line: MDA ; value: >100 µM
COc1ccc(/C=C/C=C/C(=O)[Se]c2ccccc2)cc1 ; read by: WST ; cell line: HEK 293 ; value: >100 µM
Nc1nc2c(ncn2[C@@H]2C[C@H](CO)[C@H]2CO)c(=O)[nH]1 ; cell line: CD4+ T lymphocytes ; value: 6.4 µg/mL
O=c1[nH]cnc2c1ncn2[C@H]1CC[C@@H](CO)O1 ; cell line: CFU-E ; value: 93 µM
O=C(/C=C/c1ccc(O)cc1)[Se]c1ccccc1 ; read by: WST ; cell line: HEK 293 ; value: >100 µM
CCCCCCCCCCCCCCCCOP(=O)([O-])OCCC[N+](C)(C)Cc1ccccc1 ; read by: MTT ; cell line: HUVEC ; value: >100 µM
Nc1ncnc2c1ncn2C[C@@H](CO)OCP(=O)(O)O ; cell line: U373-MG ; value: 34 µg/mL
CN[C@H]1C[C@@]23CC[C@@]4(O2)C(=CC[C@]2(C)C(c5ccc6ccncc6c5)=CC[C@H]24)C=C3[C@@H](O)[C@@H]1O ; read by: ATP ; cell line: HUVEC ; value: <0.1 µM
O=C(O)C1=CC(=C(c2ccc(O)c(C(=O)O)c2)c2ccc(O)c(C(=O)O)c2)C=CC1=O ; cell line: SupT1 ; value: 52 µg/mL
O=c1cc(-c2ccc(O)cc2)oc2cc(O)cc(O)c12 ; read by: luminescence ; cell line: n4mBid ; value: >30 µM
Nc1ccn(C[C@@H](CO)OCP(=O)(O)O)c(=O)n1 ; cell line: U87MG ; value: 165 µg/mL
O=C(/C=C/c1ccc(O)c(O)c1)[Se]c1ccccc1 ; read by: WST ; cell line: HLE ; value: >100 µM
O=c1c2ccccc2[se]n1-c1ccccc1 ; read by: luminescence ; cell line: n4mBid ; value: >30 µM
CN(C)[C@H]1C[C@@]23CC[C@@]4(O2)C(=CC[C@]2(C)C(c5ccc6ccncc6c5)=CC[C@H]24)C=C3[C@@H](O)[C@@H]1O ; read by: ATP ; cell line: HUVEC ; value: <0.1 µM
O=C(/C=C/c1ccccc1)[Se]c1ccccc1 ; read by: WST ; cell line: HLE ; value: 72.9 µM
O=C(O)P(=O)(O)O ; cell line: CD4+ T lymphocytes ; value: 132 µg/mL
NC(N)=NC(=O)c1nc(Cl)c(N2CCCCCC2)nc1N ; cell line: MDM ; value: >10 µM
NC(=O)c1ncn([C@@H]2O[C@H](CO)[C@@H](O)[C@H]2O)n1 ; read by: neutral red ; cell line: APC103 ; value: 78 µM
Cc1[nH]c(=S)nc2c1ncn2CCOCP(=O)(O)O ; cell line: HB611 ; value: 200 µM
Nc1nc2c(ncn2COC(CO)CO)c(=O)[nH]1 ; cell line: CD4+ T lymphocytes ; value: 61 µg/mL
C[C@]12CC=C3C=C4[C@@H](O)[C@H](O)[C@@H](N)C[C@]45CC[C@]3(O5)[C@@H]1CC=C2c1ccc2ccncc2c1 ; read by: ATP ; cell line: HUVEC ; value: 0.1–1 µM
CCCCCCCCCCCCCCCC[N+](C)(C)Cc1ccccc1 ; read by: MTT ; cell line: MCF ; value: 1 µM
CNCCCC1c2ccccc2C=Cc2ccccc21 ; read by: luminescence ; cell line: n4mBid ; value: 16 µM
O=c1ccn(CCOCP(=O)(O)O)c(=O)[nH]1 ; cell line: HB611 ; value: >200 µM
CN(C)[C@H]1C[C@@]23CC[C@@]4(O2)C(=CC[C@]2(C)C(c5ccc6ccncc6c5)CC[C@@H]42)CC3[C@@H](O)[C@@H]1O ; read by: ATP ; cell line: HUVEC ; value: 0.1–1 µM

3 of the rows above, restated:

structure | read by | cell line | value
CCCCCCCCCCCCCCCCOP(=O)([O-])OCCC[N+](C)(C)Cc1ccccc1 | MTT | HUVEC | >100 µM
Nc1nc(=O)n(CC(CO)OCP(=O)(O)O)cc1-c1ccccc1 |  | HB611 | >200 µM
Nc1ccnc2c1ncn2CCOCP(=O)(O)O |  | HB611 | 261 µM